Results on one substance are retold here after article PMC11628845 (Acta Pharmaceutica Sinica. B, 2024).

This assay relates to wild type HBV (pHBV 1.3). The assay is classed as cell-based. The following applies: read-out: HBV DNA IC50; Wide type (pHBV 1.3).

By IC50 is commonly meant the concentration needed to halve the response being measured. Regarding GLS4, the IC50 stood at 2.1 nM.
